# Paper PMC3516572, “MiniCD4 Microbicide Prevents HIV Infection of Human Mucosal Explants and Vaginal Transmission of SHIV162P3 in Cynomolgus Macaques” (PLoS Pathogens, 2012)
# Test system: breakthrough viruses (SHIV162P3, animal # 19302)
# Assay: Susceptibility of pseudotyped breakthrough viruses in TZM-bl assay
# Assay type: cell-based, simian-human immunodeficiency virus
# Settings: plasma of animal # 19302 collected 21 days after challenge, env sequenced and pseudotyped
compound,measurement,value
CC(C)C[C@@H]1NC(=O)CNC(=O)[C@H](CC(C)C)NC(=O)[C@H](CO)NC(=O)[C@H](CCCCN)NC(=O)[C@@H]2CSSC[C@@H](C(=O)N[C@H](C(N)=O)C(C)C)NC(=O)[C@H](C)NC(=O)[C@@H]3CSSC[C@H](NC(=O)[C@H](Cc4ccccc4)NC(=O)[C@H](Cc4cnc[nH]4)NC(=O)[C@H](CC(C)C)NC(=O)[C@H](CC(N)=O)NC(=O)CCSSC[C@H](NC(=O)[C@H](CCCNC(=N)N)NC(=O)CNC(=O)[C@H](CC(C)C)NC1=O)C(=O)N[C@@H](C)C(=O)N1CCC[C@@H]1C(=O)N[C@@H]([C@@H](C)O)C(=O)N[C@@H](Cc1ccc(OCC4CCCCC4)cc1)C(=O)N3)C(=O)N[C@@H](CCC(N)=O)C(=O)N[C@@H](CC(C)C)C(=O)N[C@@H](CCCNC(=N)N)C(=O)N2 [M48U1],Susceptibility of breakthrough viruses to M48U1,fully susceptible
